Assay results reported in paper PMC5449093, “Selective inhibitors of trypanosomal uridylyl transferase RET1 establish druggability of RNA post-transcriptional modifications” (RNA Biology, 2016).
Like-named read-outs stand apart in the source and are kept apart here.

Chains of the proteins cited; added tags and fusions are not shown. A line that says so, or that is headed by a name, gives the form on record, which may keep a tag or linker. Residues count along the entry.
UniProt Q8WQX5, 1-976 with tags or gaps A749G/DEL18-18/G858D/N24H/V111I/W59S: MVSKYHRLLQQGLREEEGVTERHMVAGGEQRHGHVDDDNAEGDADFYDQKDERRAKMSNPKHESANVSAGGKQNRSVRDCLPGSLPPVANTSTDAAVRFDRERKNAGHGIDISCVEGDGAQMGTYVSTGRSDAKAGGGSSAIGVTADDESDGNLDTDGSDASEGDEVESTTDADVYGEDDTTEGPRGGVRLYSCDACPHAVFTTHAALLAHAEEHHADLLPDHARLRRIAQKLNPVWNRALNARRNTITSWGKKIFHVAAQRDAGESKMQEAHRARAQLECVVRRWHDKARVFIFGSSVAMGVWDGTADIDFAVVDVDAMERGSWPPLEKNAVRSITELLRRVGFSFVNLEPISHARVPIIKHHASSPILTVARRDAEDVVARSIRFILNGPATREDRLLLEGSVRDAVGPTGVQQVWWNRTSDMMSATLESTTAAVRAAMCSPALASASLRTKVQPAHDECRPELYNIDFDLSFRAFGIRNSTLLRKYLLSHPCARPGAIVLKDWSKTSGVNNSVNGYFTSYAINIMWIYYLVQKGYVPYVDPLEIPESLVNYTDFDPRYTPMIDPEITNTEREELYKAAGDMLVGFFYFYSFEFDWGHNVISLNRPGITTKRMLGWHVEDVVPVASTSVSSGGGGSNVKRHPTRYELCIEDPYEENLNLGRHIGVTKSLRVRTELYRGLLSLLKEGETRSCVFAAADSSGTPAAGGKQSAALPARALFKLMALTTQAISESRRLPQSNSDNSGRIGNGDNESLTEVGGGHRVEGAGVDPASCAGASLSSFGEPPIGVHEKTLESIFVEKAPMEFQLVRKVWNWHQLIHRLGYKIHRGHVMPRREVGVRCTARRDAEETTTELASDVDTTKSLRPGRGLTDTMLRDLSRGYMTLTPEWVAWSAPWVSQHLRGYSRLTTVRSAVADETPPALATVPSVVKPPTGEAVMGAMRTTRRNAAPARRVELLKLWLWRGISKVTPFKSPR

Key:
RET1 [1] = target: T1, RET1 (Trypanosoma brucei brucei, UniProt Q8WQX5, A749G/DEL18-18/G858D/N24H/V111I/W59S); assay: Gel based assay for RET1 uridylylation activity (Sybr Gold); format: biochemical; conditions: qualitative class: inactive, moderate or strong inhibitor; inhibitor 50 µM per method
RET1 [2] = target: T1, RET1; assay: Luciferase coupled PPi assay, 384 well format, RET1; format: biochemical
Procedure: Reactions were made up in Corning® 384 Well Low Flange White Flat Bottom Polystyrene TC-Treated Micro plates (Product #3570). RET1 enzyme was added at 0.1 μl (0.2 mgml^−1), UTP (Thermo Scientific R0471 100 mM) and RNA substrate final concentrations were equal to their Km: 50 μM and 20 nM respectively.[18] The volume was made up to 10 μl with buffer 6 (Tris pH 7.5 10 mM, KCl 10 mM, DTT 1 mM, MgCl2 3.2 mM) and the reaction was incubated 20 mins at 25°C, then heat inactivated at 65°C for 10 mins. Test compounds were added in 0.5 μl of DMSO stock solution. The positive control included of 0.5 μl of DMSO. After a 10 min cooling period, 5 μl of each of detection and conversion reagents from PPiLight™ Inorganic Pyrophosphate Assay Kit (Lonza, LT07-610) were added. Luminescence was read with a Pherastar Plus micro plate reader. IC50 determinations were carried out in triplicate using the luciferase assay protocol in a dilution series of 1 mM to 99 nM.

CID1 poly (U) polymerase = conditions: RET1 over CID1, calculated from IC50 values

For CC1(COc2ccc(CC3SC(=O)NC3=O)cc2)CCCCC1 (stereo not shown), the “Gel Assay (qualitative activity in gel based assay)” value (RET1 [1]) was “strong”, the IC50 (RET1 [2]; read-out: RET1 IC50, PPi assay 384-well follow-up, UTP 50 µM, RNA 20 nM) was 500 µM and the IC50 (RET1 [2]; read-out: RET1 Inhibition IC50, selectivity experiment, Table 2) was 500 µM. For the same compound, the “RET1 Selectivity (fold)” value (CID1 poly (U) polymerase) was 2 fold.
